Taken from: PubChem BioAssay AID1259414 (Drosophila RNAi Screening Center, 2018)
Assay: 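Fly genes that alter Wolbachia amount inside host cells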 (primary screen). Cells: Drosophila JW18 cells infected with Wolbachia. Knock-down reagent: long dsRNA against Drosophila genes, 0.25 µg dsRNA per well of a 384-well plate. Duration: 5 days. Challenge: cells persistently infected with Wolbachia before knock-down; no added drug. Measured: 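Imaged fluorescence in situ signal for Wolbachia 23S rRNA per DAPI-counted host cell, given as a robust z-score within each plate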. Reading the numbers: Wolbachia per cell robust z: higher = more Wolbachia per host cell than the plate typical. Active means: 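Active if absolute robust z reaches 1.5 in two or more of three replicates, leaving out multi- or no-target dsRNAs, genes unexpressed in JW18 and A1 wells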.
In all, the deposit lists about 24,000 reagents; this is a random part of those that have a named target and a result. Over the whole deposit, about 1,210 (5%) are marked active. 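Inactive calls also include excluded dsRNAs with several or no targets, genes unexpressed in JW18, and well A1, regardless of score.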 A number with no mark means an inactive call. The numbers tell different reagents against one gene apart. A plus sign joins genes that one reagent is predicted to hit.

| target gene | reagent | Wolbachia per cell robust z, rep 1 | Wolbachia per cell robust z, rep 2 | Wolbachia per cell robust z, rep 3 |
| --- | --- | --- | --- | --- |
| wat | 1 | 1.15 | -0.221 | -0.161 |
| CG13760 | 1 | 0.704 | 0.147 | 0.226 |
| CG12769 | 1 | -0.356 | -0.12 | 0.367 |
| neb | 1 | 1.49 | 2.01 | 1.14 |
| neb | 2 | 0.884 (active) | 2.22 | 1.54 |
| CG16704 | 1 | 0.0112 | -0.0293 | 0.366 |
| CG17029 | 1 | 0.0882 | 1.4 | 0.694 |
| CG17029 | 2 | -0.629 | -2.43 | -0.606 |
| CG17029 | 3 | 0.866 (active) | -1.8 | -1.78 |
| Ube4A | 1 | -6.45 | 0.356 | 1.26 |
| Cpr30F | 1 | -0.475 | -0.643 | 0.314 |
| Cpr30F | 2 | 0.755 | -0.612 | 0.567 |
| Top2 | 1 | 1.18 | 0.31 | 0.0289 |
| Top2 | 2 | -1.36 | 0.409 | -0.508 |
| Scox | 1 | 1.13 | -0.942 | 0.218 |
| Scox | 2 | 0.6 | 0.744 | 1.03 |
| CG18662 | 1 | 0.00796 | -8.23 | -0.13 |

Active calls, among the entries above:
| target gene | reagent | Wolbachia per cell robust z, rep 1 | Wolbachia per cell robust z, rep 2 | Wolbachia per cell robust z, rep 3 |
| --- | --- | --- | --- | --- |
| neb | 2 | 0.884 (active) | 2.22 | 1.54 |
| CG17029 | 3 | 0.866 (active) | -1.8 | -1.78 |

The list goes on.
| target gene | reagent | Wolbachia per cell robust z, rep 1 | Wolbachia per cell robust z, rep 2 | Wolbachia per cell robust z, rep 3 |
| --- | --- | --- | --- | --- |
| plx | 1 | 2.71 | -0.221 | -8.63 |
| plx | 2 | -0.526 | -0.139 | -3.15 |
| plx | 3 | -0.469 | -1.43 | -0.794 |
| plx | 4 | -2.11 (active) | -0.781 | -2.46 |
| scpr-C + scpr-A | 1 | 0.558 | 0.174 | 0.331 |
| Sptz | 1 | 0.825 | -0.118 | 0.525 |
| Sptz | 2 | -0.00782 | 0.864 | -0.163 |
| CG17127 | 1 | 0.365 | 0.181 | -0.362 |
| CG17127 | 2 | 0.942 | -0.259 | -0.616 |
| Atac1 | 1 | -2.64 | -0.709 | 0.482 |
| mthl8 | 1 | -1.4 | 0.999 | 0.185 |
| mthl8 | 2 | -0.23 | 0.695 | -0.272 |
